Anti-infective test results gathered from many reports (values: NIAID ChemDB through PubChem).

Shared fields: growth or infection tests; agent: Varicella zoster virus; method: plaque count; endpoint: EC50

An empty or dashed field is not shown. ECn is the concentration giving n% inhibition of infection, replication or growth. Neighbouring rows are from separate reports.

SMILES,cells,strain,value
O=c1[nH]c(=O)n([C@H]2C[C@H](O)[C@@H](CO)O2)cc1-c1ccc(Cl)s1,HEL,13 isolates,0.25 µM
O=c1[nH]c(=O)n([C@@H]2O[C@H](CO)[C@@H](O)[C@H]2O)cc1/C=C/Br,HEL,-,42 µM
Nc1nc2c(ncn2[C@@H]2C=C[C@H](CO)CC2)c(=O)[nH]1,HEL,07/1 (TK-),2.1 µg/mL
CCCCCCCCc1cc2cn([C@H]3C[C@H](O)[C@@H](CO)O3)c(=O)nc2o1,HEL,Strains YS and Oka,0.016 µM
O=c1[nH]c(=S)n([C@@H]2O[C@H](CO)[C@@H](O)[C@@H]2O)cc1Cl,MRC-5,HOSEN,263 µM
C=Cc1cn([C@H]2C[C@H](O)[C@@H](CO)O2)c(=O)[nH]c1=O,HEL,-,1.18 µM
O=c1ccn([C@H]2C[C@H](O)[C@@H](CO)O2)c(=S)[nH]1,MRC-5,HOSEN,>412 µM
COC(=O)[C@H](C)NP(=O)(OCC1C/C1=C\n1cnc2c(N)ncnc21)Oc1ccccc1,HFF,-,111 µM
O=C(O)CP(=O)(O)O,HEL,PCV-resistant/A,33.1 µg/mL
O=c1[nH]c(=O)n([C@@H]2O[C@H](CO)[C@@H](O)[C@@H]2O)cc1I,HEL,-,70 µM
CCCCCCCCCCc1cc2cn([C@H]3C[C@H](O)[C@@H](CO)O3)c(=O)nc2o1,HEL,Strains YS and Oka,0.012 µM
O=c1[nH]c(=S)n([C@H]2C[C@H](O)[C@@H](CO)O2)cc1F,MRC-5,HOSEN,>383 µM
O=c1[nH]c(=O)n([C@H]2C[C@H](O)[C@@H](CO)O2)cc1/C=C/Br,HEL,07/1 (TK-),10 µg/mL
Cc1cn([C@@H]2O[C@H](CO)[C@@H](O)[C@@H]2O)c(=O)[nH]c1=O,HEL,13 isolates,0.32 µM
Nc1nc(Cl)c2nnn(C[C@H]3CC[C@@H](CO)C3)c2n1,HEL,OKA,>200 µg/mL
COC(=O)[C@H](C)NP(=O)(OC[C@H]1C/C1=C/n1cnc2c(N)nc(N)nc21)Oc1ccccc1,HFF,-,1 µM
O=c1[nH]c(=O)n([C@@H]2O[C@H](CO)[C@@H](O)[C@@H]2O)cc1/C=C/Br,HEL,PCV-resistant/A,0.00012 µg/mL
Nc1ncnc2c1ncn2[C@@H]1O[C@H](CO)[C@@H](O)[C@@H]1O,HEL,OKA (TK+),8.6 µM
Nc1nc(Cl)c2ncn(C[C@H]3CC[C@@H](CO)C3)c2n1,HEL,07/1 (TK-),>20 µg/mL
Cc1cccc2c1OP(=O)(OC[C@H]1O[C@@H](n3cc(/C=C/Br)c(=O)[nH]c3=O)C[C@@H]1OC(=O)[C@H]1CCCN1)OC2,HELF,OKA,0.009 µg/mL
Nc1ncc2c(ncn2COC(CO)CO)n1,HEL,YS/R (TK-),0.36 µM
C#Cc1cn([C@H]2C[C@H](O)[C@@H](CO)O2)c(=O)[nH]c1=O,HEL,-,0.4 µM
Nc1nccc2c1ncn2C[C@@H](CO)OCP(=O)(O)O,HEL,OKA (TK+),0.13 µM
Nc1nc2c(ncn2[C@H]2C=C[C@@H](CO)CC2)c(=O)[nH]1,HEL,OKA (TK+),1.9 µg/mL
CC(C)(C)c1cccc2c1OP(=O)(OC[C@H]1O[C@@H](n3cc(/C=C/Br)c(=O)[nH]c3=O)C[C@@H]1O)OC2,HELF,OKA,0.011 µg/mL
Nc1nc2c(ncn2[C@@H]2C[C@H](CO)[C@H]2CO)c(=O)[nH]1,HEL,YS,0.6 µM
Cc1cccc2c1OP(=O)(OC[C@H]1O[C@@H](n3cc(/C=C/Br)c(=O)[nH]c3=O)C[C@@H]1OC(=O)[C@H](N)Cc1ccccc1)OC2,HELF,OKA,0.065 µg/mL
Nc1ccn(C[C@H]2COP(=O)(O)CO2)c(=O)n1,HEL,YS (TK+),1.06 µM
Nc1nc(N)c2ncn(CCOCP(=O)(O)O)c2n1,HEL,BVDU-resistant,1.32 µg/mL
Nc1nc(N)c2ncn(C[C@H]3CC[C@@H](CO)C3)c2n1,HEL,YS/R (TK-),>50 µg/mL
Cc1cn([C@@H]2O[C@H](CO)[C@@H](O)[C@@H]2F)c(=O)[nH]c1=O,HEL,-,0.108 µM
Nc1nc2c(ncn2COC(CO)CO)c(=O)[nH]1,HEL,PFA-resistant/B,0.3 µg/mL
CC(C)C(=O)O[C@H]1C[C@H](n2cc(/C=C/Br)c(=O)[nH]c2=O)O[C@@H]1COP1(=O)OCc2ccccc2O1,HELF,OKA,0.026 µg/mL
O=c1[nH]c(=S)n([C@@H]2O[C@H](CO)[C@@H](O)[C@@H]2O)cc1Br,MRC-5,HOSEN,141 µM
CC#Cc1cn([C@H]2C[C@H](O)[C@@H](CO)O2)c(=O)[nH]c1=O,HEL,-,3.2 µM
Nc1ncnc2c1ncn2[C@@H]1O[C@H](CO)[C@H]1CO,HEL,OKA (TK+),3.6 µM
CCc1cn([C@H]2C[C@H](O)[C@@H](CO)O2)c(=O)[nH]c1=O,HEL,-,>625 µM
COc1nc(N)nc2c1ncn2C=C1CC1CO,HFF,-,23.9 µM
Cc1cc(C)c2c(c1)COP(=O)(OC[C@H]1O[C@@H](n3cc(/C=C/Br)c(=O)[nH]c3=O)C[C@@H]1O)O2,HELF,OKA,0.019 µg/mL

5 of the rows above, restated:

SMILES,cells,strain,value
Nc1ncc2c(ncn2COC(CO)CO)n1,HEL,YS/R (TK-),0.36 µM
Cc1cc(C)c2c(c1)COP(=O)(OC[C@H]1O[C@@H](n3cc(/C=C/Br)c(=O)[nH]c3=O)C[C@@H]1O)O2,HELF,OKA,0.019 µg/mL
Nc1nc2c(ncn2[C@H]2C=C[C@@H](CO)CC2)c(=O)[nH]1,HEL,OKA (TK+),1.9 µg/mL
Nc1nc(N)c2ncn(C[C@H]3CC[C@@H](CO)C3)c2n1,HEL,YS/R (TK-),>50 µg/mL
COC(=O)[C@H](C)NP(=O)(OC[C@H]1C/C1=C/n1cnc2c(N)nc(N)nc21)Oc1ccccc1,HFF,-,1 µM